Tests used:
[1] = target: T1, Human immunodeficiency virus type 1 reverse transcriptase (Human immunodeficiency virus 1, UniProt Q72547); test: Inhibition of RNA-dependent DNA polymerase activity of wild type HIV1 subtype B reverse transcriptase by filter-based filtration assay
[2] = target: T1, Human immunodeficiency virus type 1 reverse transcriptase; test: Inhibition of DNA-dependent DNA polymerase activity of wild type HIV1 subtype B reverse transcriptase by gel-based primer extension assay
[3] = target: T2, Human immunodeficiency virus type 1 reverse transcriptase (Human immunodeficiency virus 1, UniProt Q72547, M230L); test: Inhibition of RNA-dependent DNA polymerase activity of HIV1 subtype B reverse transcriptase M230L mutant by filter-based filtration assay
[4] = target: T2, Human immunodeficiency virus type 1 reverse transcriptase; test: Inhibition of DNA-dependent DNA polymerase activity of HIV1 subtype B reverse transcriptase M230L mutant by gel-based primer extension assay

Cc1cc(C#N)cc(C)c1Oc1nc(Nc2ccc(C#N)cc2)nc(N)c1Br [ETRAVIRINE]
IC50 [1]: 68 nM | IC50 [2]: 126 nM | IC50 [3]: 696 nM | IC50 [4]: 1320 nM

Source: ChEMBL document CHEMBL1255481, “The M230L nonnucleoside reverse transcriptase inhibitor resistance mutation in HIV-1 reverse transcriptase impairs enzymatic function and viral replicative capacity” (Antimicrob Agents Chemother, 2010)
